Target: top four peptide candidates
Experiment: BLI

With “SARS-CoV-2 S1 protein (His-tag, #S1N-C52H3, Acro Biosystems) (domain or fragment)” the Kd was 100 to 250 nM.

From PMC8571316 (Scientific Reports, 2021)
